Results of single-concentration screens

Mtb glucose medium: 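Phenotypic screen: M. tuberculosis growth, glucose 7H9 medium, 3 days; the read-out is not stated. Tested at 500 µM. The record gives no direction; compounds that gave an IC50 in retests scored well above the rest, so higher reads as more growth inhibition. Of about 18,000 compounds tested this way, about 1,400 (7.9%) reached 50% or more in at least one test.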
Mtb cholesterol medium: 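Growth of Mycobacterium tuberculosis over 4 days (cholesterol / DPPC medium with tyloxapol); the read-out is not stated. Tested at 500 µM. Direction is inferred from retests: higher values go with more growth inhibition. Size under these conditions: about 18,000 compounds, about 900 of them at 50% or above in at least one test.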

Results are given as percent effect.
How 0% and 100% were set is not recorded. Most values in the screen are low, and negative values occur.
The entries come from a sample that favours strong results.
A dash means the value is not listed here; it may have been measured.

SMILES,Mtb glucose medium,Mtb cholesterol medium
CN(C)c1ncccc1CNC(=O)N1CCCC1,9.172%,-
CNS(=O)(=O)c1ccc(C(=O)NC(C)COC)cc1 (configuration not stated),-8.535%,-
CNCCCNS(=O)(=O)c1cccc(C)c1C#N,1.721%,-
O=S(=O)(NCCO)N1CCNCC1,-2.608%,-
c1snnc1CNCC1COC2(CCCCC2)O1 (configuration not stated),56.1%,56.32%
CC(=O)Cn1cnc2sc(C)c(C)c2c1=O,-,6.193%
CC[S+]([O-])CC(=O)NCCc1nc2c(s1)CCCC2 (configuration not stated),12.92%,9.631%
OC(Cc1ccncc1)C(F)(F)F (configuration not stated),-0.3537%,-
CCN(C(=O)Cc1c[nH]c(=O)[nH]c1=O)[C@H]1COC[C@@H]1O,8.548%,-
Cc1noc(C)c1C(=O)N1CCOc2ccccc21,23.46%,-
O=C(CC1CCCC1)NCCN1C(=O)CCC1=O,-,-6.691%
CCCc1noc(COc2ccccc2C(N)=O)n1,40.89%,-
COCC(NC(=O)Nc1ccccc1F)C(N)=O (configuration not stated),-,13.49%
COCCCNC(=O)c1cc(S(C)(=O)=O)ccc1C,8.969%,-
O=C(N1CCCCC1)N1CCCC(c2nnc[nH]2)C1 (configuration not stated),21.39%,-
N#Cc1cc(Br)ccn1,-7.272%,-
CN(C)C1CCCN(C(=O)NCCc2ccco2)C1 (configuration not stated),14.6%,-
Cc1nn(C)c(C(=O)NCCCn2ccnc2)c1Cl,7.428%,-
COc1cc(Br)c(CN(C)CC(=O)N(C)C)c(OC)c1,7.061%,-
Cn1cc(C(C)(O)CN)cn1 (configuration not stated),-11.07%,-
Cc1ccccc1C(=O)N[C@@H]1CN(C)C[C@H]1CN(C)C,21.8%,-
O=C(NCCCn1cc(Cl)cn1)C1CCOCC1,18.81%,-
O=C(c1ccccc1F)N1CCNCC1,-9.94%,-
Cn1ccc(NC(=O)CN2CCC[C@@H]2C(N)=O)n1,-,0.1837%
O=C(CN1CCSCC1)NCC1CCCO1 (configuration not stated),29.8%,-
CO[C@@H](C(=O)NCCC1=CCOCC1)c1ccccc1,15.93%,-
CC(CO)N(C)C(=O)c1cccc2cc[nH]c12 (configuration not stated),6.081%,-9.535%
COC(=O)CCCC(=O)Nc1ncc(C)[nH]1,8.855%,-
CC1(C#N)CCNCC1,6.384%,-
Clc1ccc(-c2noc(CN3CCCNCC3)n2)cc1,84.16%,73.38%
O=C(Cn1ccnn1)Nc1ccncc1F,-3.813%,-
CC(C)(CN)C1(O)CCOC1 (configuration not stated),7.363%,-
CN(C)S(=O)(=O)CCCN1C[C@H](C2CC2)[C@@H](N)C1,11.07%,-
CC(C)c1ccc(-c2nnn(CC(=O)N(C)C)n2)cc1,2.983%,-8.704%
COc1cc(C#N)cnc1C,-,-12.36%
COCCNC1(C(=O)NCC2CC2)CCCC1,5.742%,-
CCC(C)(C#N)NC(=O)c1ccc(C)nc1 (configuration not stated),4.887%,-
CC(=O)c1ccc(S(C)(=O)=O)c(N2CCC(C)(C)C2)c1,83.57%,79.09%
CCN(CC)C(=O)CCC1CCNCC1,-0.8825%,-
COCCNC(=O)c1ccc2c(c1)OCCCO2,-,19.26%
CC(NS(C)(=O)=O)c1cccnc1 (configuration not stated),6.611%,-
COc1ccc(F)cc1C(=O)N1CC[C@H]2CC[C@@H](C1)N2,-,0.4465%
CC(C)c1n[nH]c(C(=O)NCCN2CCOCC2)c1Br,-,3.607%
CC(C)CC(O)C1CCN(Cc2cccnc2N)CC1 (configuration not stated),-,1.922%
N[C@@H](C(=O)NCCc1cn[nH]c1)C1CCCCC1,2.752%,-
C1COC(CN2CCCNCC2)C1 (configuration not stated),-,-1.602%
CS(=O)(=O)N1CCC(CC(=O)NCc2ccccc2)C1 (configuration not stated),7.918%,-16.79%
COc1ccc(CN2CCN(C)C(CCO)C2)cc1 (configuration not stated),-,10.37%
O=C1CNCCN1CCc1ccccc1,-,18.49%
NCCc1ccc(N2CCOCC2)c(F)c1,53.31%,-
CC(=O)NCc1ccc(-c2csc(N)n2)s1,29.61%,-
Cc1nc(CCNC(=O)C2CNCCO2)sc1C (configuration not stated),-2.639%,-
c1ccc(CC2CCNCC2)nc1,-16.32%,-
NS(=O)(=O)c1ccc(NC(=O)Cn2ccnc2)cc1,-11.14%,71.74%
CC(C)c1nnc(NC(=O)N(C)C)s1,-,1.03%
FC(F)(F)COCCNCCn1cccn1,-0.428%,-
CN1CCCN(C(=O)c2csc3c2CCCC3)CC1,-,18.47%
Cc1cc(C)n(C2CNC2)n1,-6.521%,-
NC(=O)c1ccccc1C(F)(F)F,5.944%,-
CC(NC(=O)CNc1ccccc1F)c1ccco1 (configuration not stated),68.94%,64.8%
NC1CCN(C2COC2)CC1,-7.696%,-
CCNC(=O)CNC(=O)C(C)(O)CCc1ccccc1 (configuration not stated),28.73%,-
CCN1CCN(CC(C)CNc2ncccc2F)CC1 (configuration not stated),1.301%,-
N#Cc1cccc(C(=O)OCCCn2cccn2)c1,51.41%,68.64%
COc1cc(CCN)ccc1Cl,49.59%,12.77%
CCNC(=O)c1cc2ccc(OC)cc2[nH]1,53.23%,-
NC(=O)CN1CCN(c2cccc(Cl)c2)CC1,34.03%,7.368%
O=C(c1cc(C2CC2)on1)N1CCC2(CCNCC2)C1,23.53%,-
CCCN1CCC(NC(=O)c2ccc(O)cn2)C1 (configuration not stated),11.73%,-

The last 4 entries again:

{"smiles": "CCNC(=O)c1cc2ccc(OC)cc2[nH]1", "Mtb glucose medium": 53.23}
{"smiles": "NC(=O)CN1CCN(c2cccc(Cl)c2)CC1", "Mtb glucose medium": 34.03, "Mtb cholesterol medium": 7.368}
{"smiles": "O=C(c1cc(C2CC2)on1)N1CCC2(CCNCC2)C1", "Mtb glucose medium": 23.53}
{"smiles": "CCCN1CCC(NC(=O)c2ccc(O)cn2)C1", "stereo": "configuration not stated", "Mtb glucose medium": 11.73}

From ChEMBL document CHEMBL3988442, “University of Dundee, Small-Polar-MMV Screening Library” (2021).